According to PubChem BioAssay AID624414 (National Center for Advancing Translational Sciences (NCATS), 2012):
The list shows a part of the results, in another mix than the full data. The source made the active and inactive calls. Rule as the data show it: active = activation above about 50%; inconclusive = mostly about 30% to 49%; inactive = weaker than that.

Protein sequences, listed by entry. Tags and fused reporters are not part of them.
UniProt Q9GZU1, whole entry: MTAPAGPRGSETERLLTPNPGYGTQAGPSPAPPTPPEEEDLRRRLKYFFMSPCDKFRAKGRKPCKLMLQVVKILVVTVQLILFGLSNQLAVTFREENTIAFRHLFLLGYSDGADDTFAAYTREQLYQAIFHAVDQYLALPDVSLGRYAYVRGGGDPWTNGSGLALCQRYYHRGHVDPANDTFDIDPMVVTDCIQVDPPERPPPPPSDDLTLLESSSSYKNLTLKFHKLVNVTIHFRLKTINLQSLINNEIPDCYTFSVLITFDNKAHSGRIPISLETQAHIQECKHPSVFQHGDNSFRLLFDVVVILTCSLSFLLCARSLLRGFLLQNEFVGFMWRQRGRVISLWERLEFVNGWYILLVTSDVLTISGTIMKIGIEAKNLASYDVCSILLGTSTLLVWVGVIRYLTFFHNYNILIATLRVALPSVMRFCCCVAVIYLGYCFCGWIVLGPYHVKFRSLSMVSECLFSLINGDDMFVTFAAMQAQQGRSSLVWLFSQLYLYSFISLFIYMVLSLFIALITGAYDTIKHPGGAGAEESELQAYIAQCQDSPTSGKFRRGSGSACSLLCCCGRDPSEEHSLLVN

molecular target: Mucolipin-1 (Homo sapiens) (UniProt Q9GZU1); experiment: qHTS for Agonists of the Human Mucolipin Transient Receptor Potential 1 (TRPML1); conditions: TRPML1-expressing cells, Ca2+ dye fluorescence, FDSS; hits give high values; also: 0% is about no effect
Procedure, shortened: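 Agonist activity was taken from a 110 s kinetic Ca2+ dye read on the FDSS after pinning compounds onto TRPML1-DL cells. The cells were seeded at 1,500/well with Tet inducer, incubated about 16 h, then dye-loaded at room temperature.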

| Compound | activation |
| --- | --- |
| CC(C)NC(=O)NP(=O)(Oc1ccccc1)Oc1ccccc1 | inactive: -0.648% |
| CCN(CC)C(=S)SC(NC=O)C(Cl)(Cl)Cl (centres undefined) | inactive: -0.618% |
| O=C(OC1CN2CCC1CC2)c1cccc2[nH]cnc12 (centres undefined) | inactive: 1.06% |
| COc1ccc(OP(C)(=O)Nc2cccc(F)c2)cc1 (centres undefined) | inactive: -0.46% |
| O=[N+]([O-])c1cc([N+](=O)[O-])c(-c2ccn[nH]2)s1 | inactive: 0.827% |
| Cc1cc(C)cc(OP(C)(N)=O)c1 (centres undefined) | inactive: -0.855% |
| CCOC(=O)c1ccc(NP(C)(=O)Oc2ccccc2)cc1 (centres undefined) | inactive: 0.842% |
| ClCCSc1nnc(-c2cccnc2)o1 | inactive: -0.145% |
| O=Cc1ccc(NCCCl)cc1 | inactive: -0.887% |
| COc1ccccc1OP(C)(=O)Nc1ccc(C)cc1 (centres undefined) | inactive: 0.325% |
| COC(=O)C1(C)COP(=O)(N2CCCCCC2)OC1 (centres undefined) | inactive: 0.184% |
| Cc1ccc(NP(C)(=O)Oc2ccccc2)c(C)c1 (centres undefined) | inactive: -0.169% |
| CC(C)c1ccc(OP(=O)(Nc2ccccn2)Oc2ccccc2F)cc1 (centres undefined) | inactive: 1.24% |
| O=P1(N(CCCl)CCCl)OCCCN1CCCl (centres undefined) | inactive: 1.03% |
| O=P1(N(CCCl)CCCl)Nc2ccccc2N1 | inactive: 0.739% |
| COc1ccc2nc(NP(=O)(c3ccccc3)c3ccccc3)sc2c1 | inactive: 0.486% |
| COc1cc(I)ccc1[As](=O)(O)O | inactive: 0.894% |
| Cc1c2c(nc3ccccc13)SC(C(Cl)Cl)C2 (centres undefined) | inactive: 1.38% |
| O=C(OC1CN2CCC1CC2)C12CC3CC(CC(C3)C1)C2 (centres undefined) | inactive: 2.04% |
| Cc1cc(=O)[nH]c(N[N+](=O)[O-])n1 | inactive: 0.466% |
| CCN(CC)CCCOC(=O)C(O)(c1ccccc1)c1ccccc1 | inactive: 1.21% |
| COc1ccc(N/C(=N/P(=O)(N2CCOCC2)N2CCOCC2)N2CCOCC2)cc1 | inactive: -0.118% |
| COc1ccccc1-c1ccccn1.O=[N+]([O-])c1cc([N+](=O)[O-])c(O)c([N+](=O)[O-])c1 | inactive: -0.611% |
| O=C(COc1ccccc1)OC1CN2CCC1CC2 (centres undefined) | inactive: -0.605% |
| CP(=O)(NC(=O)Nc1ccccc1)Oc1ccccc1 (centres undefined) | inactive: 0.654% |

| Compound | activation |
| --- | --- |
| CCc1ccc(OP(C)(=O)N2CCN(c3ccc([N+](=O)[O-])cc3)CC2)cc1 (centres undefined) | inactive: 1.16% |
| O=C(Nc1ccncc1[N+](=O)[O-])c1ccc([N+](=O)[O-])cc1[N+](=O)[O-] | inactive: 1.03% |
| Cc1cc(C)cc(OP(C)(=O)Nc2ccc(SC(F)(F)F)cc2)c1 (centres undefined) | inactive: 0.596% |
| COP1(=S)c2c(C)nn(CCC#N)c2N=C(c2ccc(F)cc2)N1C (centres undefined) | inactive: 0.147% |
| Cc1cccc(C)c1OP(C)(=O)Nc1ccc(SC(F)(F)F)cc1 (centres undefined) | inactive: 0.215% |
| CP(=O)(Nc1ccc(SC(F)(F)F)cc1)Oc1ccc(Cl)cc1 (centres undefined) | inactive: 1.42% |
| CP(=O)(Oc1ccccc1)OC(c1ccccc1)C(F)(F)F (centres undefined) | inactive: 1.59% |
| COC(=O)C1(C)COP(=O)(N2CCCC2)OC1 (centres undefined) | inactive: -0.58% |
| CCC(C)N(CC(C)C)C(=S)SC(NC(C)=O)C(Cl)(Cl)Cl (centres undefined) | inactive: -0.551% |
| CP(=O)(Nc1ccccn1)Oc1ccc(Cl)cc1 (centres undefined) | inactive: -0.56% |
| CCOP(=O)(Nc1cccc2cccnc12)OCC | inactive: 2.65% |
| O=C(OC1CN2CCC1CC2)c1cccc([N+](=O)[O-])c1 (centres undefined) | inactive: 0.204% |
| CCOP(C)(=S)SCC(=O)NC(C)C(=O)O (centres undefined) | inactive: -0.0707% |
| CSc1ccc(Nc2c([N+](=O)[O-])cc([N+](=O)[O-])cc2[N+](=O)[O-])cc1 | inactive: 5.63% |
| CCOC(=O)c1ccc(NC(=O)C(C)(CCl)SC)cc1 (centres undefined) | inactive: 1.11% |
| CCOC(=O)c1ccc(NP(C)(=O)Oc2ccc(OC)cc2)cc1 (centres undefined) | inactive: 0.507% |
| O=[N+]([O-])c1cc([N+](=O)[O-])c(O)c([N+](=O)[O-])c1.c1ccc(Oc2ccncc2)cc1 | inactive: 0.169% |
| COP(=O)(OC)N1CC1c1ccccc1 (centres undefined) | inactive: -0.385% |
| CCCCOc1ccc(C(=O)NCC2(N3CCCCC3)CCCCC2)cc1OC | inactive: 28.1% |
| Cc1cc(SC(NC(=O)c2ccccc2)C(Cl)(Cl)Cl)nc(C(C)C)n1 (centres undefined) | inactive: 0.28% |
| O=C(O)C(=O)c1ccc(N(CCCl)CCCl)cc1.c1ccc(Nc2ccccc2)cc1 | inactive: -0.42% |
| CC1CCNP(=O)(N(CCCl)CCCl)O1 (centres undefined) | inactive: -0.405% |
| O=P(Nc1ccccn1)(c1cccc2ccccc12)c1cccc2ccccc12 | inactive: 1.25% |
| Cc1cc(SC(NC=O)C(Cl)(Cl)Cl)ncn1 (centres undefined) | inactive: -0.579% |
| COc1ccccc1OP(C)(=O)Nc1ccccc1 (centres undefined) | inactive: -0.606% |

| Compound | activation |
| --- | --- |
| CP(=O)(Nc1ccccc1Br)Oc1ccccc1 (centres undefined) | inactive: -0.89% |
| O=[N+]([O-])c1ccc(Nc2ccc(Oc3ccc([N+](=O)[O-])cc3[N+](=O)[O-])cc2)c([N+](=O)[O-])c1 | inactive: -0.0843% |
| CP(=S)(Nn1cnnc1)Oc1ccccc1 (centres undefined) | inactive: -0.369% |
| CCOC(=O)Nc1cccc([As](=O)(O)O)c1 | inactive: 1.18% |
| CP(=O)(OC12CC3CC(CC(C3)C1)C2)OC12CC3CC(CC(C3)C1)C2 | inactive: 3.1% |
| CCOC(=O)c1ccc(NP(C)(=O)Oc2ccc(Cl)cc2)cc1 (centres undefined) | inactive: -0.404% |
| O=P(/N=c1/nc(-c2ccccc2)n(-c2ccccc2)s1)(Nc1ccccc1)Nc1ccccc1 | inactive: -0.0317% |
| O=C(Nc1cc([As](=O)(O)O)ccc1O)c1ccccc1 | inactive: 2.6% |
| Cc1cc(C=O)ccc1N(CCCl)CCCl | inactive: -0.295% |
| O=P1(N(CCCl)CCCl)OCCCS1 (centres undefined) | inactive: 0.583% |
| Nc1ccc2c(ccc3cccnc32)n1.O=[N+]([O-])c1cc([N+](=O)[O-])c(O)c([N+](=O)[O-])c1 | inactive: 5.53% |
| O=C(O)CNc1ccc([As](=O)(O)O)cc1 | inactive: 1.13% |
| COC(=O)C1(C)COP(=O)(Nc2ccccc2)OC1 (centres undefined) | inactive: 0.23% |
| O=[N+]([O-])c1cccc(NC2=NCC(CBr)S2)c1 (centres undefined) | inactive: -0.227% |
| O=[N+]([O-])c1ncn(CCn2ncnc2[N+](=O)[O-])n1 | inactive: 0.264% |
| CC(C)(C)C(=O)NC(Sc1ccncn1)C(Cl)(Cl)Cl (centres undefined) | inactive: -0.525% |
| CP(=O)(Oc1ccccc1)N1CCOC1=O (centres undefined) | inactive: -0.69% |
| Cc1ccc(NP(=O)(Oc2ccccc2)Oc2ccccc2)nc1 | inactive: -0.674% |
| CCc1ccc(OP(C)(=O)Nc2cccnc2)cc1 (centres undefined) | inactive: -1.1% |
| CCc1nc2c(n1)c1c(non1O)c1c2no[n+]1[O-] | inactive: -0.436% |
| O=[N+]([O-])c1cc([N+](=O)[O-])c(CCNc2ccccc2)c([N+](=O)[O-])c1 | inactive: 1.08% |
| O=[N+]([O-])c1cccc2n[nH]nc12 | inactive: -0.605% |
| CC(=O)N1C2C3N(C(C)=O)C1C1N(C(C)=O)C(C(N1C(C)=O)N3C(C)=O)N2C(C)=O | inactive: -0.894% |
| COc1ccccc1OP(C)(=O)Nc1c(C)n(C)n(-c2ccccc2)c1=O (centres undefined) | inactive: -0.633% |
| O=C(OCCCN1CCCC1)C(O)(c1ccccc1)C1CCCCC1 (centres undefined) | inactive: 0.78% |

| Compound | activation |
| --- | --- |
| CCN(CC)CC(O)COC(=O)C(O)(c1ccccc1)C1CCCCC1 (centres undefined) | inactive: 0.865% |
| COc1ccc(OP(C)(=O)Nc2ccc(Br)cc2)cc1 (centres undefined) | inactive: -0.14% |
| COc1ccc(C2=NCC(CBr)S2)cc1 (centres undefined) | inactive: 0.0471% |
| CC1CCN(C(=O)Oc2c(Cl)cc(Cl)c3cccnc23)CC1 | inactive: -0.654% |
| c1cc(-c2nn[nH]n2)ccc1-c1nn[nH]n1 | inactive: 0.14% |
| COc1cc([N+](=O)[O-])c([N+](=O)[O-])cc1OC | inactive: -0.531% |
| CC(C)c1nc(Nc2ccccc2)n(P(=O)(N(C)C)N(C)C)n1 | inactive: -0.455% |
| CN(C)C(=O)c1c([N+](=O)[O-])cc([N+](=O)[O-])cc1[N+](=O)[O-] | inactive: -0.415% |
| CC(C)=N/N=C(\N)N[N+](=O)[O-] | inactive: -1.13% |
| CN(C)C(=O)OCCc1n(C)cc[n+]1C | inactive: 0.0456% |
| CCN(/C(=N/P(=O)(N1CCOCC1)N1CCOCC1)N1CCOCC1)c1ccc(OC)cc1 | inactive: 0.715% |
| CP(=O)(Nc1ccc(Cl)cc1)Oc1ccc(F)cc1 (centres undefined) | inactive: 0.147% |
| COc1ccccc1OP(C)(=O)Nc1ccccc1Br (centres undefined) | inactive: -0.0882% |
| CC(C)(C)c1ccc(OP(C)(=O)O)cc1 | inactive: 0.25% |
| Nc1ccc([As](=O)(O)c2ccc(N)cc2)cc1 | inactive: 0% |
| C[N+]1=C2C=CC=CC=C2SC12C([N+](=O)[O-])=CC([N+](=O)[O-])=C[C-]2[N+](=O)[O-] (centres undefined) | inactive: 1.44% |
| CN1CCCC(OC(=O)C(c2ccccc2)c2ccccc2)C1 (centres undefined) | inactive: -1.01% |
| Clc1ccc(Cl)c(NC2=NCC(CBr)S2)c1 (centres undefined) | inactive: -1.19% |
| CN(C)CCOC(=O)C(O)(c1ccccc1)C1CCCC1 (centres undefined) | inactive: -0.308% |
| COc1ccccc1OP(=O)(Nc1ccc(C)cn1)Oc1ccccc1OC | inactive: 1.46% |
| COc1ccc(OP(C)(=O)Nc2ccccn2)cc1 (centres undefined) | inactive: -0.033% |
| Cc1ccc(OP(=O)(Nc2nccs2)Oc2ccc(C)cc2)cc1 | inactive: -0.727% |
| CN(C(=O)Cc1ccc(Cl)c(Cl)c1)[C@H]1CCCC[C@H]1N1CCCC1 | inactive: 1.58% |
| COc1ccccc1OP(C)(=O)Nc1ccc(Br)cc1 (centres undefined) | inactive: 1.23% |
